Laboratory results as given in article PMC2680979.

Legend:
Assay in all cases: ITC; 37°C; gp120 about 4 µM in the cell, sCD4 about 40 µM in the syringe; reaction A1 (CD4 to free gp120); apparent enthalpy
2CC (HIV-1 (HXBc2)) = target: 2CC (HIV-1 (HXBc2))
3CC (HIV-1 (HXBc2)) = target: 3CC (HIV-1 (HXBc2))
4CC (HIV-1 (HXBc2)) = target: 4CC (HIV-1 (HXBc2))
coreV3S (HIV-1 (HXBc2)) = target: coreV3S (HIV-1 (HXBc2))

sCD4 (from UniProt P01730 26-396) (receptor)
dH (2CC (HIV-1 (HXBc2))): 27 kcal/mol
dH (3CC (HIV-1 (HXBc2))): 27 kcal/mol
dH (4CC (HIV-1 (HXBc2))): 27 kcal/mol
dH (coreV3S (HIV-1 (HXBc2))): 56 kcal/mol
